Measured values from several laboratories, pooled; numbers as filed in NIAID ChemDB.

All rows: host cell toxicity; cells: VERO; read-out: CC50

CCn: concentration that lowers growth or viability of the cells by n%. An empty or dashed field is not shown. Lines come from different laboratories, so protocols vary.

structure,read by,result
Cc1cccc(-n2c(-c3ccc(F)cc3)cc(CN3CCN(C)CC3)c2C)c1,-,16 µg/mL
CCCCOc1ccc2nccc(N/N=C/c3ccc(OC)c4ccccc34)c2c1,-,3.4 µg/mL
CCOC(=O)c1cc(COc2ccnc3ccccc23)on1,-,>128 µM
CC(=O)Oc1c(C)c2c(O)c3c1C1=C(OCOC1=C(C)C3=O)/C(C)=C/[C@@](C)(O)[C@H](O)[C@@H](C)[C@@H](O)[C@H](C(=O)O)[C@H](O)[C@H](C)C(O)[C@H](C)/C=C\C=C(/C)C(=O)N2,-,21 µg/mL
Cc1c(C(=O)NCc2ccc(Br)cc2)[n+](=O)c2cc(Cl)ccc2n1[O-],ATP / luminescence,>40 µg/mL
Cc1c(CN2CCSCC2)cc(-c2ccc(F)cc2)n1-c1ccc(Cl)cc1,-,8 µg/mL
CCCc1cn([C@H]2C[C@H](O)[C@@H](CO)S2)c(=O)[nH]c1=O,-,>100 µM
Nc1ncnc2c1ncn2[C@@H]1C=C(CO)[C@@H](O)[C@@H]1O,-,>10 µg/mL
CCCCS(=O)(=O)Nc1ccc2[nH]c(C(=O)OC(C)C)c(C)c2c1,resazurin,71 µM
C=C1CCC2C(C)(COC(=O)CCCCCCCCCCCCCCC)C(OC(=O)CCCCCCCCCCCCCCC)CCC2(C)C1C/C=C1\C(=O)OCC1O,crystal violet,4.2 µM
Cc1c(C(=O)NCc2ccc3c(c2)OCO3)[n+](=O)c2cc(Cl)ccc2n1[O-],ATP / luminescence,>40 µg/mL
COC(C)c1cn([C@H]2C[C@H](O)[C@@H](CO)S2)c(=O)[nH]c1=O,-,>500 µM
COc1ccc(/C=N/NC(=O)CN2c3c(-c4ccccc4)n[nH]c3-c3ccccc3S2(=O)=O)c(OC)c1,-,82.8 µM
CN(C)C(=S)SCN1C(=O)c2ccccc2C1=O,-,1.7 µg/mL
O=C(NCc1ccc(Cl)cc1)c1c[nH]c2ccc(C#CCO)cc2c1=O,-,49 µM
[O-][n+]1c2ccccc2[n+]([O-])c2c3ccccc3[nH]c21,-,6.05 µg/mL
O=C(c1cc(COc2cc(C(F)(F)F)nc3c(C(F)(F)F)cccc23)on1)N1CCCCO1,-,>128 µM
Cc1c[nH]c2ccc([N+](=O)[O-])cc12,resazurin,140 µM
CC1CCC(CN2CCN([C@@H](Cc3ccccc3)CN3CCCC3CN3CCNC[C@@H]3Cc3ccccc3)C[C@@H]2Cc2ccccc2)CC1,-,0.82 µg/mL
Cc1c(CN2CCSCC2)cc(-c2ccccc2)n1-c1ccccc1F,-,8 µg/mL
CC1=CC(=Nc2ccc(N(C)C)cc2)C=C(C)C1=O,-,1.82 µg/mL
CC(C)(C)c1cc(C(C)(C)C)c2oc(-c3ccncc3)nc2c1,-,39.3 µg/mL
O=[N+]([O-])c1ccc(/C=N\O)o1,-,11.5 µg/mL
O=c1[nH]c(=O)n([C@H]2C[C@H](O)[C@@H](CO)S2)cc1C12CC3CC(CC(C3)C1)C2,-,>125 µM
O=[N+]([O-])c1cnc(Sc2cncc[n+]2[O-])s1,-,5.03 µg/mL
CC1(C)C=C2[C@H]3CC[C@@H]4[C@@]5(C)CCC(=O)C(C)(C)[C@@H]5CC[C@@]4(C)[C@]3(C)CC[C@@]2(C(=O)O)CC1,-,40 µg/mL
CC(C)c1ccc2c(c1)CCC1C2(C)CCCC1(C)C(O)c1ccccc1,-,30 µg/mL
C=C1CCC2C(C)(COC(C)=O)C(OC(C)=O)CCC2(C)C1C/C=C1/C(=O)OCC1OC(C)=O,crystal violet,6.4 µM
O=C(NCc1ccccc1)c1c(-c2ccccc2)[n+](=O)c2ccc(Cl)cc2n1[O-],ATP / luminescence,>40 µg/mL
CCN(CC)c1ccc(/C=N/NC(=O)CN2c3c(-c4ccccc4)n[nH]c3-c3ccccc3S2(=O)=O)cc1,-,62.6 µM
Nc1c(C(=O)Nc2ccccc2)[n+]([O-])c2ccccc2[n+]1[O-],-,3.53 µg/mL
CCOC(=O)c1cc(COc2ccc3cc[nH]c3c2)on1,-,>128 µM
CCCCS(=O)(=O)Nc1ccc2[nH]c(C(=O)N(C)C)c(C)c2c1,resazurin,>150 µM
CCOC(=O)CSc1nnc(-c2ccc([N+](=O)[O-])o2)s1,-,4.8 µg/mL
O=C(Nc1ccccc1)c1c(-c2ccccc2)[n+](=O)c2cc(Cl)c(Cl)cc2n1[O-],ATP / luminescence,5.541 µg/mL
NC(=O)C(=O)CC(=O)c1ccccc1NC1=CC(=O)C(=O)c2ccccc21,-,>10 µg/mL
O=C(NCc1ccccc1)c1c(-c2ccccc2)[n+](=O)c2ccccc2n1[O-],ATP / luminescence,>40 µg/mL
CCCCS(=O)(=O)Nc1ccc2[nH]c(C(=O)NCc3ccccc3C)c(C)c2c1,resazurin,>120 µM
CCOC(=O)c1cc(COc2ccc3ccccc3n2)on1,-,>128 µM
CCCCS(=O)(=O)Nc1ccc2[nH]c(C(=O)N(C)Cc3ccccc3)c(C)c2c1,resazurin,120 µM
S=C(Nc1ccc(Cl)cc1)c1ccccn1,-,2.88 µg/mL
CCCCS(=O)(=O)Nc1ccc2[nH]c(C(=O)NC3COC3)c(C)c2c1,resazurin,>140 µM
C=C1CCC2C(C)(CO)C(O)CCC2(C)C1C/C=C1\C(=O)OCC1OC(C)=O,crystal violet,6.6 µM
CC1(C)CC(=O)c2c(C(F)(F)F)nn(-c3ccc(C(N)=O)c(NC4CCC(O)CC4)c3)c2C1,MTT,13.33 µM
Nc1ncnc2c1ncn2C[C@H](O)CO,-,>5 µg/mL
CCN(CC)Cc1cc(Nc2nc(/C=C/c3ccc(Cl)cc3)nc(Cl)c2-c2ccc(Cl)cc2)ccc1O,-,5.12 µg/mL
Nc1nc2c(ncn2[C@H]2S[C@@H](CO)C=C2F)c(=O)[nH]1,-,>66.4 µM
COc1ccc2nc(N/N=C(\C)c3ccccn3)cc(C)c2c1,-,0.39 µg/mL
Nc1nccc2c1ncn2[C@@H]1C[C@H](CO)[C@@H](O)[C@H]1O,-,>150 µg/mL
Cc1nc(/N=C(\N)Nc2ccc(Cl)c(Cl)c2)ncc1N1CCC(N2CCCC2)CC1,-,1.97 µg/mL
CCOC(=O)CSc1nnc(-c2ncc([N+](=O)[O-])n2C)s1,-,10 µg/mL
CC1(C)Oc2cc3oc(C(=O)O)cc(=O)c3cc2-c2ccccc21,-,262.3 µg/mL
CCc1noc(-c2cc(COc3cc(C(F)(F)F)nc4c(C(F)(F)F)cccc34)on2)n1,-,>128 µM
C=CCNc1nc2c(s1)c1c(O)c3c(O)c(C)c4c(c32)C(=O)[C@@](C)(O/C=C/[C@H](OC)[C@@H](C)[C@@H](OC(C)=O)[C@H](C)[C@H](O)[C@H](C)[C@@H](O)[C@@H](C)/C=C/C=C(/C)C(=O)N1)O4,-,>10 µg/mL
CCCCCCCCCC1N=C(N)N2CCCC2=C1C(=O)OCCCCN=C(N)N,-,0.7 µM
Nc1nc(Cl)c2ncn(C=C3C[C@H]3CO)c2n1,-,95 µM
CC(C)(C)c1cc(C(C)(C)C)c2oc(-c3ccc(Br)cc3)nc2c1,-,80.4 µg/mL
Cc1c2c(cc3c1[nH]c1ccccc13)C(c1ccc(F)cc1)=NCC2,-,0.88 µg/mL
CCOc1ccc2c(N/N=C/c3ccc(N(CC)CC)cc3)cc(C)nc2c1,-,6.2 µg/mL
O=C(CN1c2c(-c3ccccc3)n[nH]c2-c2ccccc2S1(=O)=O)N/N=C/c1ccc(Cl)cc1,-,14.2 µM
c1ccc(CCN2CCN([C@@H](Cc3ccccc3)CN3CCCC3CN3CCNC[C@@H]3Cc3ccccc3)C[C@@H]2Cc2ccccc2)cc1,-,0.99 µg/mL
N#Cc1cn([C@H]2C[C@H](O)[C@@H](CO)S2)c(=O)[nH]c1=O,-,>500 µM
O=C(CN1c2c(-c3ccccc3)n[nH]c2-c2ccccc2S1(=O)=O)N/N=C/c1ccc(Br)cc1,-,48.5 µM
CCCCOC(=O)CSc1nnc(-c2ncc([N+](=O)[O-])n2C)s1,-,>10 µg/mL
Cc1c(CN2CCN(C)CC2)cc(-c2ccccc2F)n1-c1cccc2ccccc12,-,4 µg/mL
Nc1ncnc2c1ncn2[C@@H]1C=C(CO)[C@@H](O)C1,-,>5 µg/mL
Cc1ccc(-n2c(-c3ccc(F)cc3)cc(CN3CCSCC3)c2C)cc1,-,32 µg/mL
CCCCc1ccc2nccc(N/N=C/c3ccc(OC)c4ccccc34)c2c1,-,5.7 µg/mL
NNC(=O)CN1c2c(-c3ccccc3)n[nH]c2-c2ccccc2S1(=O)=O,-,>100 µM
C=C1CCC2C(C)(CO)C(O)CCC2(C)C1/C=C/C1=CCOC1=O,crystal violet,243.4 µM
CCN(CC)c1ccc(/C=N/Nc2cc(C)nc3cc(Cl)ccc23)cc1,-,11.9 µg/mL
Cc1c(C(=O)NCc2ccc(C(F)(F)F)cc2)[n+](=O)c2cc(Cl)ccc2n1[O-],ATP / luminescence,>40 µg/mL
O=C(NNC(=S)Nc1cccc(C(F)(F)F)c1)c1ccncc1,-,>62.5 µg/mL
CCCCCCCCC[C@H]1CC2CCC3C(C(=O)OCCCCN=C(N)N)[C@@H](C)N=C(N1)N23,-,0.5 µM
CC(=O)c1cn([C@H]2C[C@H](O)[C@@H](CO)S2)c(=O)[nH]c1=O,-,351 µM
Cc1c(CN2CCSCC2)cc(-c2ccccc2F)n1-c1ccccc1,-,4 µg/mL
CCCCS(=O)(=O)Nc1ccc2[nH]c(C(=O)N3CCCCCC3)c(C)c2c1,resazurin,130 µM
Nc1nc2c(ncn2C=C2CC2CO)c(=O)[nH]1,-,100 µM
CCN(CC)C(=O)c1cc(COc2cc(C(F)(F)F)nc3c(C(F)(F)F)cccc23)on1,-,46.5 µM
CCS(=O)(=O)O.OC1CC2CCC(C1)N2CCCN1c2ccccc2Sc2ccc(Cl)cc21,-,>500 µg/mL
CCCCCS(=O)(=O)Nc1ccc2[nH]c(Br)c(C)c2c1,resazurin,69 µM
CC(=O)Oc1c(C)c(O)c(C(C)=O)c2c1C1(C)C(=O)C(C(C)=O)=C(O)C=C1O2,-,7.91 µg/mL
Cc1cc(NN)c2cc(C3CCCCC3)ccc2n1,-,5.31 µg/mL
OC(c1cc(-c2ccc(Cl)cc2)nc2ccccc12)C1CCCCN1,-,12 µg/mL
CCCCS(=O)(=O)Nc1ccc2[nH]c(C#N)c(C)c2c1,resazurin,170 µM
O=C(CN1c2c(-c3ccccc3)n[nH]c2-c2ccccc2S1(=O)=O)N/N=C/c1c(Cl)cccc1Cl,-,8 µM

Repeating the final 6 entries:

CCCCCS(=O)(=O)Nc1ccc2[nH]c(Br)c(C)c2c1 ; read by: resazurin ; result: 69 µM
CC(=O)Oc1c(C)c(O)c(C(C)=O)c2c1C1(C)C(=O)C(C(C)=O)=C(O)C=C1O2 ; result: 7.91 µg/mL
Cc1cc(NN)c2cc(C3CCCCC3)ccc2n1 ; result: 5.31 µg/mL
OC(c1cc(-c2ccc(Cl)cc2)nc2ccccc12)C1CCCCN1 ; result: 12 µg/mL
CCCCS(=O)(=O)Nc1ccc2[nH]c(C#N)c(C)c2c1 ; read by: resazurin ; result: 170 µM
O=C(CN1c2c(-c3ccccc3)n[nH]c2-c2ccccc2S1(=O)=O)N/N=C/c1c(Cl)cccc1Cl ; result: 8 µM